Pooled drug test results. Numbers come from NIAID ChemDB, via PubChem.

Common to all: tests in culture; agent: HIV-1

Blank or dashed fields: not listed here. ECn is the concentration giving n% inhibition of infection, replication or growth. Lines come from different laboratories, so protocols vary.

structure,strain or isolate,read by,mutations,setting,cells,read-out,value
O=C(/C=C(O)/C=C/c1ccccc1)/C=C/c1ccccc1,-,cytopathic effect / MTT,-,-,MT-4,EC50,>41 µM
C1CNCCNCC(CCOCCOCCC2CNCCNCCCNCCNC2)CNCCNC1,IIIB,cytopathic effect / MTT,-,4 d,MT-4,EC50,3.18 µM
CC(Sc1nc2ncccc2n1-c1ccc(C2CC2)c2ccccc12)C(=O)Nc1ccc(C(N)=O)cc1Cl,IIIB,MTT,-,-,MT-4,EC50,0.38 µM
N#Cc1cccc(CN2C(=O)N(Cc3cccc(N)c3)[C@H](Cc3ccccc3)[C@H](O)[C@H]2CCc2ccccc2)c1,RF,cytopathic effect / MTT,-,-,MT-2,EC50,<0.565 µM
CC(C)(C)NC(=O)[C@@H]1C[C@H](Cl)CN1C(=O)[C@@H](O)[C@H](Cc1ccccc1)NC(=O)[C@H](CC(N)=O)NC(=O)c1noc2ccccc12,IIIB,p24,-,-,MOLT-4/HIV-1(IIIB) + MOLT-4,EC90,3.2 µM
Cc1nnc(C(=O)NC(C)(C)c2nc(C(=O)NCc3ccc(F)cc3)c(O)c(=O)n2C)o1,NL4-3,-,-,-,MT-4,EC50,0.005 µM
COC(=O)c1ccc(NC(=O)CSc2nc3ncccc3n2-c2ccc(C3CC3)c3ccccc23)c(Br)c1,IIIB,MTT,-,-,MT-4,EC50,0.37 µM
Nc1cccc(CN2C(=O)N(Cc3ccc4[nH]ncc4c3)[C@H](Cc3ccccc3)[C@H](O)[C@H]2CCc2ccccc2)c1,RF,cytopathic effect / MTT,-,-,MT-2,EC50,<0.013 µM
O=c1[nH]cnc2c1ncn2[C@H]1CC[C@@H](CO)O1,NL4-3,-,-,-,MDM,EC50,1.805 µM
CC(C)=CCN1Cc2cccc3[nH]c(=S)n(c23)C[C@@H]1C,IIIB,XTT,-,-,CEM + CEM-SS,EC50,0.1 µM
CC(=O)c1ccccc1NC(C(N)=O)c1c(Cl)cccc1Cl,IIIB,p24,-,-,MT-4,EC90,0.15 µM
Cc1cn([C@H]2C[C@H](N=[N+]=[N-])[C@@H](CO)O2)c(=O)[nH]c1=O,BaL,p24 / RT activity,-,-,Macrophage,EC50,0.015 µM
C1CNCCNCCCNCCNC1,IIIB,syncytia,-,-,MOLT-4,EC50,423 µM
CC(C)(C)NC(=O)[C@@H]1CC(=O)CN1C(=O)[C@@H](O)[C@H](Cc1ccccc1)NC(=O)[C@H](CC(N)=O)NC(=O)OCc1ccccc1,IIIB,p24,-,-,CEM,EC50,<1.5 µM
NC(=O)c1ccc(NC(=O)CSc2nc3ncccc3n2-c2ccc(C3CC3)c3ccccc23)c(Cl)c1,RES056,MTT,-,-,MT-4,EC50,>0.68 µM
c1cc(CN2CCCNCCNCCCNCC2)ccc1CN1CCCNCCNCCCNCC1,-,-,-,-,MM + M/M,EC50,0.1 µg/mL
O=C(/C=C/c1ccc(O)cc1)/C=C/c1ccc(O)cc1,-,cytopathic effect / MTT,-,-,MT-4,EC50,>1.6 µM
Cc1cn([C@H]2C[C@H](N=[N+]=[N-])[C@@H](CO)O2)c(=O)[nH]c1=O,BaL,p24 / ELISA,-,-,Monocytes + Monocyte,EC50,0.001 µg/mL
Cc1cn([C@H]2C[C@H](N=[N+]=[N-])[C@@H](CO)O2)c(=O)[nH]c1=O,IIIB,syncytia,-,-,CEM,EC50,0.002 µg/mL
Cc1cn([C@H]2C[C@H](N=[N+]=[N-])[C@@H](CO)O2)c(=O)[nH]c1=O,SK1,XTT,-,-,CEM + CEM-SS,EC50,0.005 µM
Cc1cn([C@H]2C[C@H](N=[N+]=[N-])[C@@H](CO)O2)c(=O)[nH]c1=O,-,-,-,-,MM + M/M,EC50,0.01 µM
Cc1ccnc2c1NC(=O)c1cccnc1N2C1CC1,IIIB,syncytia,RT-Y188H,-,CEM,EC50,0.02 µg/mL
N/C(=N/O)c1cccc(CN2C(=O)N(Cc3cccc(/C(N)=N\O)c3)[C@H](Cc3ccc(F)cc3)[C@@H](O)[C@H]2CCc2ccc(F)cc2)c1,RF,cytopathic effect / MTT,-,-,MT-2,EC50,<0.049 µM
O=C(CSc1nc2ncccc2n1-c1ccc(C2CC2)c2ccccc12)Nc1ccc(C(=O)O)cc1Cl,RES056,MTT,-,-,MT-4,EC50,>1.12 µM
CCCc1cc(=O)oc2c3c(c4c(c12)OC(C)(C)C=C4)O[C@H](C)[C@@H](C)[C@@H]3O,NL4-3 1 (RT K101E),XTT,RT-K101E,-,CEM + CEM-SS,EC50,1.7 µM
C[C@H](Cn1cnc2c(N)ncnc21)OCP(=O)(O)O,NL4-3,-,+Vpx,-,Primary T lymphocytes,EC50,6.822 µM
C[C@H](Cn1cnc2c(N)ncnc21)OCP(=O)(O)O,IIIB,syncytia,RT-E103K,-,CEM,EC50,1.2 µg/mL
O=c1[nH]cnc2c1ncn2[C@H]1CC[C@@H](CO)O1,-,-,-,-,MM + M/M,EC50,0.05 µM
c1cnc2c(c1)cc(CN1CCCNCCNCCCNCC1)c1cccnc12,IIIB,cytopathic effect / MTT,-,4 d,MT-4,EC50,2.23 µM
O=C1/C(=C/c2ccc(O)c(O)c2)COC/C1=C\c1ccc(O)c(O)c1,-,cytopathic effect / MTT,-,-,MT-4,EC50,>10 µM
CC(C)=CCOc1cc(NC(=S)c2ccsc2C)ccc1Cl,-,-,-,-,Primary lymphocytes + Lymphocytes,EC50,0.002 µg/mL
CC(C)(C)NC(=O)[C@@H]1CCCN1C(=O)[C@@H](O)[C@H](Cc1ccccc1)NC(=O)[C@H](CC(N)=O)NC(=O)c1cnc2ccccc2n1,IIIB,p24,-,-,CEM,EC90,0.5 µM
[NH4+],IIIB,p24,-,-,PBL,EC50,>100 µg/mL
CCC(C)(NC(=O)c1ccc(NC(=O)CSc2nc3ncccc3n2-c2ccc(C3CC3)c3ccccc23)c(Cl)c1)C(=O)O,RES056,MTT,-,-,MT-4,EC50,>5.04 µM
COc1cccc2cc(C(=O)N[C@@H](CC(N)=O)C(=O)N[C@@H](Cc3ccccc3)[C@H](O)C(=O)N3C[C@@H](Cl)C[C@H]3C(=O)NC(C)(C)C)oc12,IIIB,p24,-,-,MOLT-4/HIV-1(IIIB) + MOLT-4,EC90,0.58 µM
CC(Sc1nc2ncccc2n1-c1ccc(C2CC2)c2ccccc12)C(=O)Nc1ccc(S(N)(=O)=O)cc1Br,RES056,MTT,-,-,MT-4,EC50,>3.07 µM
Nc1ccn([C@H]2CC[C@@H](CO)O2)c(=O)n1,NL4-3,-,-,-,Primary T lymphocytes,EC50,0.081 µM
Cc1ccnc2c1NC(=O)c1cccnc1N2C1CC1,NL4-3,p24 / ELISA,V106A,-,C8166,EC50,23.5 µM
O=C(CSc1nnccc1-c1cccc2ccccc12)Nc1ccccc1[N+](=O)[O-],-,MTT,-,-,MT-4,EC50,0.046 µM
CCCc1cc(=O)oc2c3c(c4c(c12)OC(C)(C)C=C4)O[C@@H](C)[C@H](C)[C@@H]3O,CLADE C,RT activity,-,-,PBMC,EC50,0.09 µM
O=C(/C=C/c1ccc(O)c(O)c1)c1ccc(O)cc1O,-,cytopathic effect / MTT,-,-,MT-4,EC50,>5.3 µM
Cc1cn([C@H]2C[C@H](N=[N+]=[N-])[C@@H](CO)O2)c(=O)[nH]c1=O,LAV-1,virus yield,-,-,U-937,EC50,<10 µM
Nc1cccc(CN2C(=O)N(Cc3ccc4[nH]ncc4c3)[C@H](CCc3ccccc3)[C@@H](O)[C@H]2Cc2ccccc2)c1,RF,cytopathic effect / MTT,-,-,MT-2,EC50,<0.016 µM
CC(C)Nc1cccnc1N1CCN(C(=O)c2cc3cc(NS(C)(=O)=O)ccc3[nH]2)CC1,IIIB,p24,-,-,MT-4,EC90,0.05 µM
CCOC(=O)c1ccc(NC(=O)CSc2nc3ncccc3n2-c2ccc(C3CC3)c3ccccc23)c(Cl)c1,RES056,MTT,-,-,MT-4,EC50,>3.14 µM
Cc1ccnc2c1NC(=O)c1cccnc1N2C1CC1,NL4-3 1 (RT K101E),XTT,RT-K101E,-,CEM + CEM-SS,EC50,0.3 µM
O=C(O)c1cc(O)cc(O)c1N=Nc1ccc(/C=C/c2ccc(N=Nc3c(O)cc(O)cc3C(=O)O)cc2S(=O)(=O)O)c(S(=O)(=O)O)c1,BaL,p24,-,-,Macrophage,EC50,0.3 µg/mL
Nc1nc(=O)n([C@H]2CS[C@@H](CO)O2)cc1F,LAI,-,RT M184V FTC-resistant,-,PBMC,EC50,92.4 µM
O=C(O)COc1c2cc(c(OCC(=O)O)c1OCC(=O)O)C(c1ccc(F)cc1)c1cc(c(OCC(=O)O)c(OCC(=O)O)c1OCC(=O)O)C(c1ccc(F)cc1)c1cc(c(OCC(=O)O)c(OCC(=O)O)c1OCC(=O)O)C(c1ccc(F)cc1)c1cc(c(OCC(=O)O)c(OCC(=O)O)c1OCC(=O)O)C2c1ccc(F)cc1,IIIB,syncytia,-,-,CEM,EC50,4 µg/mL

3 of the rows above, restated:

{"structure": "N/C(=N/O)c1cccc(CN2C(=O)N(Cc3cccc(/C(N)=N\\O)c3)[C@H](Cc3ccc(F)cc3)[C@@H](O)[C@H]2CCc2ccc(F)cc2)c1", "strain or isolate": "RF", "read by": "cytopathic effect / MTT", "cells": "MT-2", "read-out": "EC50", "value": "<0.049 µM"}
{"structure": "Cc1cn([C@H]2C[C@H](N=[N+]=[N-])[C@@H](CO)O2)c(=O)[nH]c1=O", "strain or isolate": "IIIB", "read by": "syncytia", "cells": "CEM", "read-out": "EC50", "value": "0.002 µg/mL"}
{"structure": "Cc1ccnc2c1NC(=O)c1cccnc1N2C1CC1", "strain or isolate": "NL4-3", "read by": "p24 / ELISA", "mutations": "V106A", "cells": "C8166", "read-out": "EC50", "value": "23.5 µM"}